Percent effect of library compounds

Data taken from ChEMBL document CHEMBL3988442, “University of Dundee, Small-Polar-MMV Screening Library” (2021).

The filed quantity is “Percent Effect” (%). The controls that fix the scale are not given in the record; negative values are as filed. Many other results are left out here, so strong results are more common than in the screen. A dash means the value is not listed here; it may have been measured.

Mtb glucose medium: 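Whole-cell growth test on Mycobacterium tuberculosis, read after 3 days in glucose-containing 7H9 medium; the read-out is not stated. Concentration: 500 µM. The record gives no direction; compounds that gave an IC50 in retests scored well above the rest, so higher reads as more growth inhibition. Size under these conditions: about 18,000 compounds, about 1,400 of them at 50% or above in at least one test.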
Mtb cholesterol medium: 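Phenotypic screen: M. tuberculosis growth, cholesterol and DPPC medium, 4 days; the read-out is not stated. Concentration: 500 µM. Higher reads as more growth inhibition (inferred: compounds with an IC50 in retests scored well above the rest). Of about 18,000 compounds tested this way, about 900 (5%) reached 50% or more in at least one test.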

Result for CN(CCCOc1ccccc1)CC(=O)NCCC#N was Mtb glucose medium: 8.784%; Mtb cholesterol medium: 3.186%.
Result for Cc1cc(C(=O)NC(C)(C)CO)cc(C)c1F was Mtb cholesterol medium: 10.03%.
Result for Cc1cc(NC(=O)CN2CCCC2C(=O)N(C)C)on1 (centres unmarked) was Mtb glucose medium: -0.06833%.
Result for CC(CCc1ccc(O)cc1)NCCN1CCOCC1 (centres unmarked) was Mtb glucose medium: -4.629%.
Result for c1cnc(N2CCN(Cc3cscn3)CC2)nc1 was Mtb glucose medium: 24.5%.
Result for CC(C)NS(=O)(=O)c1cc(CN)ccc1F was Mtb glucose medium: 61.3%.
Result for Cc1c(Br)cccc1C(=O)NC(C(N)=O)C(C)C (centres unmarked) was Mtb cholesterol medium: -15.68%.
Result for COc1ccc(OC)c(NC(=O)CN2CCNCC2)c1 was Mtb glucose medium: 6.579%.
Result for CN(C)c1cc(CNC(=O)CC2C=CCC2)ccn1 (centres unmarked) was Mtb cholesterol medium: 5.573%.
Result for O=C(CN1CCN(c2ccccc2)CC1)N1CCCC1 was Mtb glucose medium: 50.64%.
Result for CCCN1CCC(NC(=O)CN2CSCC2=O)CC1 was Mtb glucose medium: -5.308%.
Result for CN(C)S(=O)(=O)c1ccc(CN2CCC(C(N)=O)C2)o1 (centres unmarked) was Mtb glucose medium: 7.427%; Mtb cholesterol medium: -1.433%.
Result for CCO[C@H]1CN(CCCc2ccco2)C[C@@H]1O was Mtb glucose medium: 8.904%; Mtb cholesterol medium: 1.799%.
Result for CN(C)c1cc(CNC(=O)c2nccnc2N)ccn1 was Mtb glucose medium: -9.909%; Mtb cholesterol medium: -16.22%.
Result for CCN1CCCN(c2ccccn2)CC1 was Mtb cholesterol medium: 11.48%.
Result for Cc1cc(N2CCC3(CC2)OCCO3)nc(C)n1 was Mtb cholesterol medium: 7.296%.
Result for O=C(Cc1ccccc1F)Nc1ccon1 was Mtb glucose medium: 15.3%; Mtb cholesterol medium: 9.393%.
Result for CCN1CCN(C(=O)c2cccnc2SC(C)C)CC1 was Mtb glucose medium: 16.22%.
Result for C=C(C)CS(=O)(=O)NC1CCN(c2ccccn2)C1 (centres unmarked) was Mtb glucose medium: 47.85%.
Result for CC(C)CN1CCC(N)CC1 was Mtb glucose medium: 2.059%.
Result for Cc1ccc(NC(=O)N(C)C[C@H](O)CO)cc1Cl was Mtb glucose medium: 23.01%; Mtb cholesterol medium: 9.63%.
Result for CNC(=O)Cn1cc(-c2ccc3c(c2)OCO3)cn1 was Mtb cholesterol medium: 0.6396%.
Result for Cc1c([C@@H]2OCC[C@H]2N)cnn1C was Mtb glucose medium: 6.005%.
Result for CC(=O)c1ccc(C(F)F)nc1 was Mtb glucose medium: 21.25%.
Result for CC(C)(N)C(O)c1ccc(Br)cc1 (centres unmarked) was Mtb glucose medium: 73.27%; Mtb cholesterol medium: 59.54%.
Result for CC(=O)c1ccc(NCc2ncc(C)o2)nc1 was Mtb glucose medium: -5.879%.
Result for Cc1cccc(NC(=O)c2cccnc2O)n1 was Mtb cholesterol medium: -2.135%.
Result for CCN1CCC(CCN)CC1 was Mtb glucose medium: 6.845%.
Result for COc1ncccc1C(=O)N1CCc2[nH]ncc2C1 was Mtb cholesterol medium: -11.17%.
Result for CN(Cc1nnc2n1CCC2)C(=O)c1ccc(Cl)s1 was Mtb cholesterol medium: -6.8%.
Result for CC(=O)NCC(=O)NCCc1ccc(O)cc1 was Mtb cholesterol medium: 5.397%.
Result for OCCN(CCO)CCc1ccccc1Cl was Mtb glucose medium: 39.4%.
Result for CN(C)Cc1ccccc1C(=O)N[C@@H]1CCOC[C@H]1O was Mtb glucose medium: -2.874%.
Result for CCOc1ccc(CC(=O)N(C)[C@H]2COC[C@@H]2O)cc1 was Mtb cholesterol medium: -4.743%.
Result for Nc1nccnc1C(=O)NCc1cc(Br)cs1 was Mtb glucose medium: 89.32%; Mtb cholesterol medium: 52.77%.
Result for COc1ccc(NC(=O)NC2CCC(O)CC2)cc1 (centres unmarked) was Mtb cholesterol medium: -1.051%.
Result for CC(C)c1nnc(CNC(=O)NCC(F)(F)F)n1C was Mtb glucose medium: -5.202%.
Result for O=C(Nc1c[nH]nc1C1CCCNC1)C1CCCC1 (centres unmarked) was Mtb glucose medium: 5.391%.
Result for CN1CCN(C(=O)Nc2c(F)cc(F)cc2Br)CC1=O was Mtb glucose medium: -7.861%.
Result for COc1cc(CN)cc(C)n1 was Mtb cholesterol medium: 12.9%.
Result for COc1ccc(NC(=O)c2cccn2C)cc1OC was Mtb glucose medium: 33.85%.
Result for CCn1cnnc1CC1CCNC1 (centres unmarked) was Mtb glucose medium: -7.128%.
Result for O=C(c1ccccn1)N1CCN(C(=O)C2CC2)CC1 was Mtb glucose medium: 5.735%; Mtb cholesterol medium: 1.571%.
Result for CNC(=O)CSC(C)C(=O)N(C)C(C)C (centres unmarked) was Mtb glucose medium: -0.1738%.

The last 5 entries again:

Compound	Mtb glucose medium	Mtb cholesterol medium
COc1cc(CN)cc(C)n1	-	12.9
COc1ccc(NC(=O)c2cccn2C)cc1OC	33.85	-
CCn1cnnc1CC1CCNC1 (centres unmarked)	-7.128	-
O=C(c1ccccn1)N1CCN(C(=O)C2CC2)CC1	5.735	1.571
CNC(=O)CSC(C)C(=O)N(C)C(C)C (centres unmarked)	-0.1738	-